In article PMC11943507 (Marine Drugs, 2025):

Legend:
hNav1.1 [1] = molecular target: T1, hNav1.1 (Homo sapiens, UniProt P35498); test: Initial screening of agonists (single concentration, fluorescence enhancement); format: cell-based; details: 500 nM toxin; HHBS negative control, 30 μM veratridine positive control
hNav1.1 [2] = molecular target: T1, hNav1.1; details: hNav1.1-CHO cells, agonist mode, fluorescence

brevetoxin1
agonist activity in initial screening (hNav1.1 [1]): significant agonist activity | EC50 (hNav1.1 [2]): 8.47 nM
